Laboratory results published in patent US8703467B2 (priority 2004, dated 2014).

Tested on: Ross River Virus (strain T48)
Settings: mice infected intravenously with 10^6 TCID50/ml live RRV; antigen dose at which 50% showed no viremia

Formalin
PD50 Week 6: 78 ng
